Results of unrelated studies side by side (data: NIAID ChemDB).

Common to all: tests in culture; agent: HIV-1; cell line: HeLa; endpoint: inhibition

Inhibition is in % at the dose shown (toxicity tests: loss of growth or viability). Blank or dashed fields: not listed here. Rows are shuffled and stem from different studies.

compound | strain | method | tested at | value
Cc1ccc2c(=O)c(C(=O)O)c[nH]c2c1C | NL4-3 | p24 / ELISA | 100 µM | <10%
Cc1ccc(C(=O)NNC(=O)Cn2c(=O)oc3ccccc32)cc1 | NL4-3 | p24 / ELISA | 100 µM | 10%
O=C(O)c1cn(Cc2ccccc2F)c2c(ccc3ccccc32)c1=O | NL4-3 | p24 / ELISA | 100 µM | <10%
O=c1oc2ccccc2n1Cc1nnc(Nc2ccccc2)s1 | NL4-3 | p24 / ELISA | 100 µM | 84%
C[C@@H]1CN(C(=O)c2ccccc2)CCN1C(=O)C(=O)c1c[nH]c2nc(-c3ccccc3)ccc12 | - | luciferase | 10 µM | 85%
O=c1c(-c2nnc(SCc3ccccc3Cl)o2)c[nH]c2c(-c3ccccc3)cccc12 | NL4-3 | p24 / ELISA | 100 µM | 25%
O=c1oc2ccccc2n1Cc1nnc(Nc2ccc(F)cc2)s1 | NL4-3 | p24 / ELISA | 100 µM | 31%
O=C(O)c1c[nH]c2c(C(=O)c3ccccc3)cccc2c1=O | NL4-3 | p24 / ELISA | 100 µM | <10%
Cc1cccc(CSc2nnc(-c3c[nH]c4c(-c5ccccc5)cccc4c3=O)o2)c1 | NL4-3 | p24 / ELISA | 100 µM | 21%
O=C(Cn1c(=O)oc2ccccc21)NNC(=S)c1ccccc1 | NL4-3 | p24 / ELISA | 100 µM | 16%
O=c1c(-c2nnc(SCc3cccc(Cl)c3)o2)c[nH]c2c(-c3ccccc3)cccc12 | NL4-3 | p24 / ELISA | 100 µM | 13%
CCc1[nH]c2ccccc2c(=O)c1C(=O)O | NL4-3 | p24 / ELISA | 100 µM | 15%
Cc1ccc(-c2nnc(-c3cnc4ccccn4c3=O)s2)cc1 | NL4-3 | single cycle | 100 µM | 51%
O=C(O)c1cn(Cc2ccc(F)cc2)c2c(ccc3ccccc32)c1=O | NL4-3 | p24 / ELISA | 100 µM | 23%
Cc1ccc(C(=S)NNC(=O)Cn2c(=O)oc3ccccc32)cc1 | NL4-3 | p24 / ELISA | 100 µM | 42%
O=c1c(-c2nnc(SCc3cccc(F)c3)o2)c[nH]c2c(-c3ccccc3)cccc12 | NL4-3 | p24 / ELISA | 100 µM | 31%
O=c1c(-c2n[nH]c(=S)o2)cnc2ccccn12 | NL4-3 | single cycle | 100 µM | 11%
Cc1ccc(Nc2nnc(Cn3c(=O)oc4ccccc43)s2)cc1 | NL4-3 | p24 / ELISA | 100 µM | 72%
COc1ccc(-c2nnc(-c3cnc4ccccn4c3=O)s2)cc1 | NL4-3 | single cycle | 100 µM | 28%
Cc1ccccc1CSc1nnc(-c2c[nH]c3c(-c4ccccc4)cccc3c2=O)o1 | NL4-3 | p24 / ELISA | 100 µM | 57%

A second listing of 2 rows from above:

compound,strain,method,tested at,value
O=c1oc2ccccc2n1Cc1nnc(Nc2ccc(F)cc2)s1,NL4-3,p24 / ELISA,100 µM,31%
O=C(O)c1cn(Cc2ccccc2F)c2c(ccc3ccccc32)c1=O,NL4-3,p24 / ELISA,100 µM,<10%